## HIV-1 5' UTR: DMS reactivities by position

Reference: Ye et al. 2022, doi:10.1038/s41594-022-00746-2.

The 5' region of HIV-1 NL4-3 RNA (positions 1-437):
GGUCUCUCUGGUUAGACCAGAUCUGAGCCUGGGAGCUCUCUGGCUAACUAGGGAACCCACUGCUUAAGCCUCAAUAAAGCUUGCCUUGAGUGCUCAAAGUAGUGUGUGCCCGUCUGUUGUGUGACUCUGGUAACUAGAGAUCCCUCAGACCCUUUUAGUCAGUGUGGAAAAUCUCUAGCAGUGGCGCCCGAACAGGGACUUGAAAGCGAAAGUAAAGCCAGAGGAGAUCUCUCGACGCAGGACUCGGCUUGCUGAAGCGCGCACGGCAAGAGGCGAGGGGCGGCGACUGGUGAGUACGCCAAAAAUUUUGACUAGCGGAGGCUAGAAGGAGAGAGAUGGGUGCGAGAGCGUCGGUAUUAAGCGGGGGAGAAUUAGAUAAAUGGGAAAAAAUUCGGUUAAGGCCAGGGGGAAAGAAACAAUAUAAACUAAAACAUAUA

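Mutant RNA libraries with 1G, 2G or 3G starts, with or without cap, were folded at 37 °C for 30 min. Monomer and dimer bands were cut from native gels after folding in high salt (300 mM KCl, 5 mM MgCl2) or low salt (40 mM KCl, 0.1 mM MgCl2). Each band was probed in the gel with DMS (170 mM, 15 min, 37 °C), with ethanol as control, and sequenced.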

Scale: normalised reactivity, A and C only; low values point to paired or protected bases, higher values to unpaired ones. One numbering serves 1G, 2G and 3G. A position is written with its base.

position	1G uncapped low-salt monomer	3G capped high-salt dimer
C152	0.86	0.76
A157	0.91	0.91
C160	0.05	0.07
A161	0.48	0.46
A168	0.44	0.43
A169	0.68	0.68
A170	0.55	0.47
A171	0.48	0.41
C173	0.05	0.03
C175	0.05	0.03
A177	0.21	0.26
C179	0.74	0.95
A180	0.55	0.67
C185	0.41	0.51
C187	0.05	0.03
C188	0.09	0.05
C189	0.13	0.07
A191	0.38	0.38
A192	0.74	0.79
C193	0.77	0.90
A194	0.96	0.97
A198	0.58	0.52
C199	0.47	0.44
A203	0.49	0.47
A204	0.68	0.69
A205	0.32	0.35
C207	0.51	0.48
A209	0.46	0.38
A210	0.55	0.44
A211	0.39	0.48
A214	0.27	0.27
A215	0.55	0.61
A216	0.49	0.76
C218	0.05	0.05
C219	0.05	0.05
A220	0.30	0.20
A222	0.25	0.25
A225	0.69	0.82
A227	0.32	0.24
C229	0.21	0.17
C231	0.14	0.14
C233	0.26	0.18
A235	0.62	0.69
C236	0.47	0.42
C238	0.65	0.46
A239	0.57	0.70
A242	0.89	1.12
C243	0.07	0.03
C245	0.23	0.07
C248	0.06	0.03
C252	0.21	0.05
A255	0.46	0.45
A256	0.81	1.01
C258	0.32	0.21
C260	0.44	0.31
C262	0.36	0.21
A263	0.23	0.83
C264	0.38	0.20
C267	0.20	0.04
A268	0.31	0.14
A269	0.52	0.21

The first 7 entries again:

For C152 the result was 1G uncapped low-salt monomer 0.86; 3G capped high-salt dimer 0.76.
For A157 the result was 1G uncapped low-salt monomer 0.91; 3G capped high-salt dimer 0.91.
For C160 the result was 1G uncapped low-salt monomer 0.05; 3G capped high-salt dimer 0.07.
For A161 the result was 1G uncapped low-salt monomer 0.48; 3G capped high-salt dimer 0.46.
For A168 the result was 1G uncapped low-salt monomer 0.44; 3G capped high-salt dimer 0.43.
For A169 the result was 1G uncapped low-salt monomer 0.68; 3G capped high-salt dimer 0.68.
For A170 the result was 1G uncapped low-salt monomer 0.55; 3G capped high-salt dimer 0.47.